Assay results from ChEMBL document CHEMBL4402583, “Rational Substitution of ε-Lysine for α-Lysine Enhances the Cell and Membrane Selectivity of Pore-Forming Melittin” (J Med Chem, 2020).

Assay: Hemolytic activity against human erythrocytes assessed as hemoglobin release incubated for 1 hr
Type: ADME, cell-based, Erythrocyte
Conditions: read-out: HD50

Compound: CC[C@H](C)[C@H](NC(=O)CN)C(=O)NCC(=O)N[C@@H](C)C(=O)N[C@H](C(=O)N[C@@H](CC(C)C)C(=O)N[C@@H](CCCCN)C(=O)N[C@H](C(=O)N[C@@H](CC(C)C)C(=O)N[C@H](C(=O)N[C@H](C(=O)NCC(=O)N[C@@H](CC(C)C)C(=O)N1CCC[C@H]1C(=O)N[C@@H](C)C(=O)N[C@@H](CC(C)C)C(=O)N[C@H](C(=O)N[C@@H](CO)C(=O)N[C@@H](Cc1c[nH]c2ccccc12)C(=O)N[C@H](C(=O)N[C@@H](CCCCN)C(=O)N[C@@H](CCCNC(=N)N)C(=O)N[C@@H](CCCCN)C(=O)N[C@@H](CCCNC(=N)N)C(=O)N[C@@H](CCC(N)=O)C(=O)N[C@@H](CCC(N)=O)C(N)=O)[C@@H](C)CC)[C@@H](C)CC)[C@@H](C)O)[C@@H](C)O)C(C)C)C(C)C [MELITTIN]
- HC50 at 1 h: 1.95 µg/mL
